Source: patent US4649911A, “Small particle aerosol generator for treatment of respiratory disease including the lungs” (Baylor College of Medicine, priority 1986, dated 1987)

Test system: influenza
Details: human, in vivo

NC(=O)c1ncn([C@@H]2O[C@H](CO)[C@@H](O)[C@H]2O)n1 [ribavirin]
effectiveness of ribavirin treatment of influenza: establish the effectiveness | safety of the treatment: the treatment is safe
